Values from PubChem BioAssay AID1259414 (Drosophila RNAi Screening Center, 2018)
In all, the deposit lists about 24,000 reagents; this is an unselected part of those with a known target gene and a result. In the full data, about 1,210 (5%) were called active. 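Inactive calls also include excluded dsRNAs with several or no targets, genes unexpressed in JW18, and well A1, regardless of score.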 Entries without a mark were called inactive. A plus sign joins genes that one reagent is predicted to hit.

Assay: 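Host factors increasing or decreasing Wolbachia levels in cultured fly cells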 (primary screen)
Cells: Drosophila JW18 cells infected with Wolbachia
Reagents: long dsRNA against Drosophila genes, 0.25 µg dsRNA per well of a 384-well plate
Timing: 5 days
Challenge: cells persistently infected with Wolbachia before knock-down; no added drug
Read-out: 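Automated imaging of bacterial rRNA staining divided by host cell count, reported as plate-normalised robust z-score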
Scale: Wolbachia per cell robust z: higher = more Wolbachia per host cell than the plate typical
Active means: 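Active if absolute robust z reaches 1.5 in two or more of three replicates, leaving out multi- or no-target dsRNAs, genes unexpressed in JW18 and A1 wells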

| Gene | dsRNA | Wolbachia per cell robust z, rep 1 | Wolbachia per cell robust z, rep 2 | Wolbachia per cell robust z, rep 3 |
| --- | --- | --- | --- | --- |
| hd | DRSC12316 | 0.966 | 0.579 | 0.835 |
| hd | DRSC26302 | -1.44 | 0.249 | -0.797 |
| Dlip3 | DRSC07401 | -2.94 | -5.24 | 0.0694 |
| Dlip3 | DRSC29615 | 0.729 | -0.839 | 1.14 |
| RpL22 | DRSC18707 | 1.28 | -6.16 | 1.53 |
| RpL22 | DRSC22819 | 1.57 | 1.25 | -0.825 |
| CNMaR | DRSC08992 | 1.54 | -0.0101 | 1.28 |
| CNMaR | DRSC10224 | 0.406 | -0.95 | -0.812 |
| Cand1 | DRSC01992 | -1.53 | -0.653 | -0.0687 |

Not a retest: entries from further up.
| Gene | dsRNA | Wolbachia per cell robust z, rep 1 | Wolbachia per cell robust z, rep 2 | Wolbachia per cell robust z, rep 3 |
| --- | --- | --- | --- | --- |
| RpL22 | DRSC22819 | 1.57 | 1.25 | -0.825 |
| CNMaR | DRSC08992 | 1.54 | -0.0101 | 1.28 |
| CNMaR | DRSC10224 | 0.406 | -0.95 | -0.812 |

The list goes on.
| Gene | dsRNA | Wolbachia per cell robust z, rep 1 | Wolbachia per cell robust z, rep 2 | Wolbachia per cell robust z, rep 3 |
| --- | --- | --- | --- | --- |
| mask | DRSC15370 | -5.16 | 0.326 | 1.43 |
| mask | DRSC16005 | -0.213 (active) | 1.72 | 2.11 |
| mask | DRSC16018 | 0.621 | -1.03 | -2.09 |
| mask | DRSC25063 | -0.0155 | 0.69 | 0.000285 |
| disco | DRSC20323 | 0.754 | -0.0345 | -4.34 |
| disco | DRSC25113 | -0.804 | -0.601 | 0.631 |
| CG1671 | DRSC06617 | 0.709 | 0.012 | 0.0451 |
| CG30378 | DRSC05071 | -4.43 | -0.836 | -1.28 |
| Den1 | DRSC07195 | -0.643 | 0.265 | -1.8 |
| CG5111 | DRSC15717 | -1.54 | 0.573 | 0.257 |
| Adhr + Adh | DRSC01862 | 0.188 | 1.09 | -0.119 |
| Adhr + Adh | DRSC01863 | 0.197 | -1.86 | 0.353 |
| CG15643 | DRSC19679 | 0.645 | 1.19 | 0.401 |
| CG15643 | DRSC27051 | -8.66 | 0.277 | 0.85 |
| CG14221 | DRSC19578 | 0.751 | 0.973 | 0.43 |
| ttm3 | DRSC03736 | 0.845 | 2.01 | 0.458 |
| CG31343 | DRSC15887 | 0.41 | 0 | 0.237 |
| lncRNA:CR31647 | DRSC21903 | -1.98 | -0.797 | -0.676 |
| lncRNA:CR31647 | DRSC24136 | 2.45 | 0.924 | 0.373 |
